Laboratory results reported in patent US20240386992A1.

These substances were tested against wt (assay: ELISA).

Substance | EC50 [µg/mL]
C144 | 0.44
P2B-2F6 | 0.3
CC12.1 | 0.24
EY6A | 0.52
S2H13 | 0.56
